Measured values from several laboratories, pooled; numbers as filed in NIAID ChemDB.

All rows: whole-cell or culture tests; agent: Candida albicans; read-out: EC50

ECn is the concentration giving n% inhibition of infection, replication or growth. Neighbouring rows are from separate reports. An empty or dashed field is not shown. Two numbers with a dash give a range or band.

SMILES	strain	read by	value
CCN1C2=NC[C@H](Cc3ccccc3)N2C[C@H]1C	ATCC 10231	-	>250 µg/mL
COc1cc(O)c(C(=O)O)c(-c2cc(O)c(O)cc2C)c1	SC5314	resazurin	>250 µM
Clc1ccc([Se][Se]c2ccc(Cl)cc2)cc1	-	-	2–10 µM
C[C@@H]1CC[C@@]2(OC1)O[C@H]1[C@@H](O)[C@H]3[C@@H]4CC[C@H]5C[C@@H](O[C@@H]6O[C@H](CO)[C@H](O[C@@H]7O[C@H](CO)[C@@H](O)[C@H](O[C@@H]8OC[C@@H](O)[C@H](O)[C@H]8O)[C@H]7O[C@@H]7O[C@H](CO)[C@H](O)[C@H](O[C@@H]8O[C@H](CO)[C@@H](O)[C@H](O)[C@H]8O)[C@H]7O)[C@H](O)[C@H]6O)[C@H](O)C[C@]5(C)[C@H]4CC[C@]3(C)[C@H]1[C@@H]2C	MY1055	-	5 µg/mL
O=C(O)c1ccccc1O	ATCC 10231	broth dilution / turbidity	0.76 µM
N[C@H]1CCC[C@H]1P(=O)(O)O	-	-	>256 µg/mL
C[C@H]1OO[C@@H](CC(=O)OCC2[C@H]3C[C@@H]4C[C@H](C3)C(Br)[C@H]2C4)[C@H]2O[C@H]21	-	-	>1000 µM
Cc1cc(C2CCCCC2)n(O)c(=O)c1	75 strains	agar diffusion / agar	<10 µg/mL
CCN1C2=NC[C@@H](C3CCCCC3)N2C[C@@H]1Cc1ccccc1	ATCC 10231	-	>64 µg/mL
N[C@H]1CCC[C@H]1S(=O)(=O)O	-	-	>256 µg/mL
COc1cc(O)cc(-c2cc(O)c(O)cc2C)c1	SC5314	resazurin	>250 µM
CSc1nc(Cl)cc(Sc2n[nH]c(=S)s2)n1	ATCC 90028	resazurin	>50 µg/mL
CC(=O)N1CCN(c2ccc(OC[C@H]3CO[C@](Cn4ccnc4)(c4ccc(Cl)cc4Cl)O3)cc2)CC1	75 strains	agar diffusion / agar	>15 µg/mL
COc1ccc([Se][Se]c2ccc(OC)cc2)cc1	-	-	2–10 µM
N[C@H]1CCN[C@H]1C(=O)O	-	-	>256 µg/mL
Clc1ccc(COC(Cn2ccnc2)c2ccc(Cl)cc2Cl)cc1	75 strains	agar diffusion / agar	>10 µg/mL
C[C@@H]([C@H](N)C(=O)N[C@H](C(=O)O)[C@H]1O[C@@H](n2ccc(=O)[nH]c2=O)[C@H](O)[C@@H]1O)[C@H](O)c1ccc(O)cn1	MY1055	-	>50 µg/mL
Cc1cc2c(C)cc(O)cc2c(=O)o1	SC5314	resazurin	97.9 µM
O=Cc1cccc(O)c1O	ATCC 90028	broth dilution / turbidity	0.04 µM
C=C(CC[C@@H](C)[C@H]1C[C@@H](O)[C@@]2(C(=O)O)C3=C(CC[C@]12C)[C@@]1(C)CC[C@H](O[C@@H]2O[C@@H](CO)[C@H](OC)[C@@H](O)[C@@H]2O)C(=C)[C@@H]1CC3)C(C)C	MY1055	-	>40 µg/mL
COc1cc(O)c2c(=O)oc3c(c2c1)C(C)(O)CC3=O	SC5314	resazurin	198 µM
C=C1C[C@@H](C(=O)O)[C@@H](N)C1C	-	-	64 µg/mL
Cc1ccc(C(C)C)c(O)c1	ATCC 90028	broth dilution / turbidity	1.1 µM
C1CCC([C@H]2CN3C(=NC[C@H]3C3CCCCC3)N2CCC23CC4CC(CC(C4)C2)C3)CC1	ATCC 10231	-	9 µg/mL
C[C@@H]1C=CC(CC(=O)OCC2C3CC4CC(C3)CC2C4)OO1	-	-	125–250 µM
CC1=NN(c2ccc(Sc3n[nH]c(=S)s3)cc2)C(=O)C1	ATCC 90028	resazurin	19.1 µg/mL
COc1cc(O)c2c(c1)C1=C[C@@H](O)[C@H](O)C[C@]1(C)OC2=O	SC5314	resazurin	>250 µM
C[C@H]1OO[C@@H](CC(=O)OCC2C3CC4CC(C3)CC2C4)[C@H]2O[C@H]21	-	-	250–500 µM
CCC(C)CC(C)CCCCCCCCC(=O)N[C@H]1C[C@@H](O)[C@@H](OCCN)NC(=O)[C@@H]2C[C@@H](O)CN2C(=O)[C@H]([C@H](O)CCN)NC(=O)[C@H]([C@H](O)[C@@H](O)c2ccc(O)cc2)NC(=O)[C@@H]2C[C@@H](O)CN2C(=O)[C@H]([C@@H](C)O)NC1=O	MY1055	-	20 µg/mL
C1C2CC3CC1CC(C2)C3[C@@]12COOC[C@@H]1O2	-	-	125–250 µM
O=C1c2ccccc2C(=O)N1CSc1n[nH]c(=S)s1	ATCC 90028	resazurin	>50 µg/mL
C1CCC(C[C@@H]2CN3C(=NC[C@@H]3CC3CCCCC3)N2CCC23CC4CC(CC(C4)C2)C3)CC1	ATCC 10231	-	3 µg/mL
CC(=O)O[C@@H]1C[C@@]23C(=O)OC[C@](C)([C@@H]2CC[C@H]2C3=CC[C@@]3(C)[C@H](C(=O)O)[C@@](C)([C@H](C)C(C)C)CC[C@]23C)[C@H]1O[C@@H]1O[C@H](CO)[C@@H](O)[C@H](O)[C@H]1O	MY1055	-	>20 µg/mL
CC(C)(C)C1CCC(CN2C3=NC[C@@H](C4CCCCC4)N3C[C@H]2CC2CCCCC2)CC1	ATCC 10231	-	6.6 µg/mL
C[C@H]1OO[C@@H](CC(=O)OCC2C3CC4CC(C3)CC2C4)[C@@H]2O[C@@H]21	-	-	>1000 µM